# In article PMC5431807, “Structural Basis for Importin-α Binding of the Human Immunodeficiency Virus Tat” (Scientific Reports, 2017):
# Biological target: importin-α (Mus musculus, UniProt P52293)
# Assay: GST-pulldown assay for affinity determination (importin-α titrated on GST-Tat:NLS/CPP beads)
# Conditions: read-out: binding affinity (dissociation constant, KD); GST-Tat:NLS/CPP on glutathione agarose beads; mouse importin-α lacking IBB domain (residues 70–529), two-fold serial dilutions from 30 µM; 1 h at 4 °C; SDS-PAGE, ImageJ; one-site specific binding, Prism 7; from three replicates
sequence,measurement,value
GRKKRRQRRRAPQN [Tat:NLS/CPP],Kd,1200 ± 200 nM
